A mixed list of measured activities; the numbers were collected in NIAID ChemDB.

Common to all: target-level tests; agent: HIV-1; target: Reverse transcriptase; measure: IC50

Two numbers with a dash give a range or band.

O=C(CSc1nnnn1-c1ccc(C(F)(F)F)cc1Cl)Nc1ccc(-c2ccc(OCCN3CCCCC3)cc2)cc1Cl ; strain or isolate: WT ; method: PicoGreen / fluorescence ; value: <1 µM
Cc1cc(C2CC2)cc(Cl)c1-n1c(Br)nnc1SCC(=O)Nc1ccc(C(=O)O)cc1Cl ; changes: RT-Y188L ; method: nucleotide incorporation / radiometric ; value: >0.1 µM
CCc1cc(CCc2nc3ccccc3o2)c(=O)[nH]c1C ; changes: RT-Y188C ; method: nucleotide incorporation ; value: 1.209 µM
CCN1c2ncc(CCOc3ccc(-c4ccc(CC(=O)O)cc4O)cc3C)cc2C(=O)N(C)c2cccnc21 ; strain or isolate: IIIB ; changes: RT-K103N Y181C ; method: nucleotide incorporation / radiometric ; value: 0.05–0.1 µM
CC(C)(C#Cc1ccc(NC(=O)CSc2nnnn2-c2ccc(C(C)(C)C)cc2Cl)c(Cl)c1)OCC(=O)NCc1ccco1 ; changes: RT-K103 Y181C ; method: PicoGreen / fluorescence ; value: <1 µM
CCN1c2ncc(CCOc3ccc(NC(=O)/C=C/C(=O)O)cc3C)cc2C(=O)N(C)c2cccnc21 ; strain or isolate: IIIB ; changes: RT-K103N Y181C ; method: nucleotide incorporation / radiometric ; value: 0.05–0.1 µM
CCCCCCNC(=O)c1ccc(NC(=O)CSc2nnc(Br)n2-c2ccc(CC)c3ccccc23)c(Cl)c1 ; changes: RT-Y188L ; method: nucleotide incorporation / radiometric ; value: >0.1 µM
CCN1c2ncc(CC(O)c3cc[n+]([O-])cc3)cc2C(=O)N(C)c2ccc(Cl)nc21 ; strain or isolate: WT ; method: nucleotide incorporation / radiometric ; value: <1 µM
Cc1ccc2ccccc2c1-n1c(Br)nnc1SC(C)C(=O)Nc1ccc(S(N)(=O)=O)cc1Cl ; changes: RT-Y188L ; method: nucleotide incorporation / radiometric ; value: >0.1 µM
CN(C)c1ccc(NC(=O)COc2ccc(NC(=O)CSc3nnnn3-c3ccc(C(C)(C)C)cc3Cl)c(Cl)c2)cc1 ; strain or isolate: WT ; method: PicoGreen / fluorescence ; value: <1 µM
CCc1ccc(-n2c(SCC(=O)Nc3ccc(S(N)(=O)=O)cc3Cl)nnc2C(F)F)c2c1CCCC2 ; method: nucleotide incorporation / radiometric ; value: <0.05 µM
CC(C)(C)c1ccc(-n2nnnc2SCC(=O)Nc2ccc(NC(=O)CCC(=O)O)cc2Cl)c(Cl)c1 ; changes: RT-K103 Y181C ; method: PicoGreen / fluorescence ; value: <1 µM
Cc1nnc2c3ccccc3c(N3CCc4ccc(C#N)cc4C3)nn12 ; strain or isolate: 98US_MSC5016 ; method: RT activity / fluorescence ; value: 4.28 µM
NS(=O)(=O)c1ccc(NC(=O)CSc2nnc(Br)n2-c2ccc(C3CC3)cc2)c(Cl)c1 ; changes: RT-Y188L ; method: nucleotide incorporation / radiometric ; value: >0.1 µM
CC(C)(C#Cc1ccc(NC(=O)CSc2nnnn2-c2cccc(Cl)c2Cl)c(Cl)c1)C(=O)O ; strain or isolate: WT ; method: PicoGreen / fluorescence ; value: <1 µM
COc1ccc2cccc(-n3c(Br)nnc3SCC(=O)Nc3ccc(C(=O)O)cc3Cl)c2c1 ; changes: RT-Y188L ; method: nucleotide incorporation / radiometric ; value: >0.1 µM
CCN1c2ncc(CCc3cccc4[nH]cc(SC)c34)cc2C(=O)N(C)c2ccc(Cl)nc21 ; changes: RT-Y181C ; method: nucleotide incorporation / radiometric ; value: >1 µM
CC(C)(C#Cc1ccc(NC(=O)CSc2nnnn2-c2ccc(C3CC3)cc2Cl)c(Cl)c1)OCCN1CCCC1=O ; strain or isolate: WT ; method: PicoGreen / fluorescence ; value: <1 µM
Cc1nnc2c3ccccc3c(N3CCc4c(F)cccc4C3)nn12 ; strain or isolate: KER2008 ; method: RT activity / fluorescence ; value: 2.51 µM
NS(=O)(=O)c1ccc(NC(=O)CSc2nnc(Cl)n2-c2ccc(C3CC3)c3ccccc23)c(Cl)c1 ; changes: RT-Y188L ; method: nucleotide incorporation / radiometric ; value: >0.1 µM
COc1cc2c(cc1N)CN(c1nn3c(C4CC4)nnc3c3ccccc13)CC2 ; strain or isolate: KER2008 ; method: RT activity / fluorescence ; value: 4.35 µM
CC(C)(C#Cc1ccc(NC(=O)CSc2nnnn2-c2ccc(C(C)(C)C)cc2Cl)c(Cl)c1)OCC(=O)N1CCOCC1 ; strain or isolate: WT ; method: PicoGreen / fluorescence ; value: <1 µM
CCc1ccc(-n2c(Br)nnc2SCC(=O)Nc2ccc(C(=O)N3CCCCC3CO)cc2Cl)c2ccccc12 ; changes: RT-Y181C ; method: nucleotide incorporation / radiometric ; value: <0.05 µM
CN1CCN(c2cc(N)cc3c2CCN(c2nn4c(C5CC5)nnc4c4ccccc24)C3)CC1 ; strain or isolate: KER2008 ; method: RT activity / fluorescence ; value: 13.9 µM
CCN1c2ncc(CCc3ccc(C(=O)OC)cc3)cc2C(=O)N(C)c2cccnc21 ; changes: RT-Y181C ; method: nucleotide incorporation / radiometric ; value: <1 µM
CC(C)(C#Cc1ccc(NC(=O)CSc2nnc(C(F)(F)F)n2-c2ccc(C3CC3)cc2Cl)c(Cl)c1)NC(=O)c1cc[n+]([O-])cc1 ; changes: RT-K103 Y181C ; method: PicoGreen / fluorescence ; value: <1 µM
CCc1ccc(-n2c(C)nnc2SCC(=O)Nc2ccc(S(N)(=O)=O)cc2C)c2ccccc12 ; method: nucleotide incorporation / radiometric ; value: <0.05 µM
CCCC#Cc1ccc(NC(=O)CSc2nnnn2-c2ccc(C(C)(C)C)cc2Cl)c(Cl)c1 ; strain or isolate: WT ; method: PicoGreen / fluorescence ; value: <1 µM
Cc1cc(S(N)(=O)=O)ccc1NC(=O)CSc1nnc(CF)n1-c1ccc(C)c2c1CCCC2 ; changes: RT-Y188L ; method: nucleotide incorporation / radiometric ; value: >0.1 µM
FC(F)(F)c1ccc2c(c1)CN(c1nn3c(C4CC4)nnc3c3ccccc13)CC2 ; strain or isolate: IIIB ; method: RT activity / fluorescence ; value: 1.82 µM
COC(=O)Cc1ccc(-c2ccc(NC(=O)CSc3nnnn3-c3ccc(C)cc3Cl)c([N+](=O)[O-])c2)cc1 ; strain or isolate: WT ; method: PicoGreen / fluorescence ; value: <1 µM
CCc1ccc(-n2c(Br)nnc2SCC(=O)Nc2ccc(C(=O)NCCC#N)cc2Cl)c2ccccc12 ; changes: RT-Y188L ; method: nucleotide incorporation / radiometric ; value: 0.05–0.1 µM
CCN1c2ncc(CCc3ccccc3)cc2C(=O)N(C)c2c1ncc(C)c2C ; changes: RT-Y181C ; method: nucleotide incorporation / radiometric ; value: <1 µM
CN1CCC[C@H]1C(=O)NC(C)(C)C#Cc1ccc(NC(=O)CSc2nnnn2-c2ccc(C3CC3)cc2Cl)c(Cl)c1 ; strain or isolate: WT ; method: PicoGreen / fluorescence ; value: <1 µM
CCN1c2ncc(CCOc3ccc(NS(=O)(=O)C(F)(F)F)c4ccccc34)cc2C(=O)N(C)c2ccc(F)nc21 ; changes: RT-V106A ; method: nucleotide incorporation / radiometric ; value: >1 µM
Nc1cc2c(c(N3CCOCC3)c1)CCN(c1nn3c(C4CC4)nnc3c3ccccc13)C2 ; strain or isolate: IIIB ; method: RT activity / fluorescence ; value: 48.1 µM
CN(C)C(=O)COC(C)(C)C#Cc1ccc(NC(=O)CSc2nnnn2-c2ccc(C(C)(C)C)cc2Cl)c(Cl)c1 ; changes: RT-K103 Y181C ; method: PicoGreen / fluorescence ; value: <1 µM
O=C(O)CNC(=O)c1ccc(NC(=O)CSc2nnc(Br)n2-c2ccc(C3CC3)c3ccccc23)c(Cl)c1 ; changes: RT-Y181C ; method: nucleotide incorporation / radiometric ; value: <0.05 µM
O=C(O)Cc1ccc(-c2ccc(NC(=O)CSc3nnnn3-c3cc4c(cc3Cl)CCC4)c(Cl)c2)cc1 ; changes: RT-K103 Y181C ; method: PicoGreen / fluorescence ; value: <1 µM
CCN1c2ncc(CCOc3ccc(-c4cc(C(=O)O)on4)cc3)cc2C(=O)N(C)c2cccnc21 ; strain or isolate: IIIB ; changes: RT-K103N Y181C ; method: nucleotide incorporation / radiometric ; value: >0.1 µM
CCc1ccc(-n2c(SCC(=O)Nc3ccc(C(=O)O)cc3Cl)nnc2C(F)(F)F)c2ccccc12 ; changes: RT-Y181C ; method: nucleotide incorporation / radiometric ; value: <0.05 µM
CCN1c2ncc(CCOc3ccc(C(=O)O)c4c3CCN(S(=O)(=O)N(C)C)C4)cc2C(=O)N(C)c2cccnc21 ; changes: RT-Y188L ; method: nucleotide incorporation / radiometric ; value: 0.1–1 µM
CSCCC(NC(=O)c1ccc(NC(=O)CSc2nnnn2-c2ccc(C(C)(C)C)cc2Cl)c(Cl)c1)C(=O)O ; changes: RT-K103 Y181C ; method: PicoGreen / fluorescence ; value: <1 µM
Cc1cc(C2CC2)cc(C)c1-n1c(Br)nnc1SCC(=O)Nc1ccc(C(=O)O)cc1Cl ; changes: RT-Y188L ; method: nucleotide incorporation / radiometric ; value: >0.1 µM
CC(C)(COc1ccc(NC(=O)CSc2nnnn2-c2ccc(C3CC3)cc2Cl)c(Cl)c1)C(=O)O ; changes: RT-K103 Y181C ; method: PicoGreen / fluorescence ; value: <1 µM
Cc1ccc(-n2c(SCC(=O)Nc3ccc(S(=O)(=O)NC(C)C(=O)O)cc3Cl)nnc2C(F)F)c2c1CCCC2 ; method: nucleotide incorporation / radiometric ; value: <0.05 µM
CC(C)(C)c1ccc(-n2nnnc2SCC(=O)Nc2ccc(-c3ccc(C(=O)O)s3)cc2Cl)c(Cl)c1 ; strain or isolate: WT ; method: PicoGreen / fluorescence ; value: <1 µM
CN(CC(=O)O)C(=O)c1ccc(NC(=O)CSc2nnc(Br)n2-c2ccc(C3CC3)c3ccccc23)c(Cl)c1 ; method: nucleotide incorporation / radiometric ; value: <0.05 µM
CC(C)(C)c1ccc(-n2nnnc2SCC(=O)Nc2ccc(-c3ccc(OCCN4CCCC4)cc3)cc2Cl)c(Cl)c1 ; changes: RT-K103 Y181C ; method: PicoGreen / fluorescence ; value: <1 µM
CCOC(=O)CN(C)C(=O)c1ccc(NC(=O)CSc2nnc(Br)n2-c2ccc(CC)c3ccccc23)c(Cl)c1 ; changes: RT-Y188L ; method: nucleotide incorporation / radiometric ; value: >0.1 µM
CC(C)(C)c1ccc(-n2nnnc2SCC(=O)Nc2ccc(NC(=O)Cc3ccccn3)cc2Cl)c(Cl)c1 ; strain or isolate: WT ; method: PicoGreen / fluorescence ; value: <1 µM
Cc1cc(S(N)(=O)=O)ccc1NC(=O)CSc1nnc(C(F)F)n1-c1ccc(C)c2c1CCCC2 ; changes: RT-Y181C ; method: nucleotide incorporation / radiometric ; value: <0.05 µM
CCN1c2ncc(CCOc3ccc(/C=C(\C)C(=O)O)c4ccccc34)cc2C(=O)N(C)c2ccc(F)nc21 ; changes: RT-K103N Y181C ; method: nucleotide incorporation / radiometric ; value: 0.1–1 µM
NS(=O)(=O)c1ccc(NC(=O)CSc2nnc(Br)n2-c2ccc(C3CC3)c3ccccc23)c(Cl)c1 ; changes: RT-Y188L ; method: nucleotide incorporation / radiometric ; value: 0.05–0.1 µM
CCN1c2ncc(CCOc3ccc(/C=C(\C)C(=O)O)c4ccccc34)cc2C(=O)Nc2c(C)ccnc21 ; changes: RT-K103N Y181C ; method: nucleotide incorporation / radiometric ; value: 0.1–1 µM
CC(C)(C)c1ccc(-n2nnnc2SCC(=O)Nc2ccc(C(=O)NCCc3ccc(O)cc3)cc2Cl)c(Cl)c1 ; changes: RT-K103 Y181C ; method: PicoGreen / fluorescence ; value: <1 µM
CCN1c2ncc(CCOc3ccc(-c4ccc(C(=O)O)cc4)cc3F)cc2C(=O)N(C)c2cccnc21 ; strain or isolate: IIIB ; changes: RT-K103N Y181C ; method: nucleotide incorporation / radiometric ; value: >0.1 µM

7 of the rows above, restated:

smiles | strain or isolate | changes | method | value
CCN1c2ncc(CCOc3ccc(/C=C(\C)C(=O)O)c4ccccc34)cc2C(=O)N(C)c2ccc(F)nc21 |  | RT-K103N Y181C | nucleotide incorporation / radiometric | 0.1–1 µM
Cc1cc(S(N)(=O)=O)ccc1NC(=O)CSc1nnc(C(F)F)n1-c1ccc(C)c2c1CCCC2 |  | RT-Y181C | nucleotide incorporation / radiometric | <0.05 µM
Cc1ccc2ccccc2c1-n1c(Br)nnc1SC(C)C(=O)Nc1ccc(S(N)(=O)=O)cc1Cl |  | RT-Y188L | nucleotide incorporation / radiometric | >0.1 µM
CN(CC(=O)O)C(=O)c1ccc(NC(=O)CSc2nnc(Br)n2-c2ccc(C3CC3)c3ccccc23)c(Cl)c1 |  |  | nucleotide incorporation / radiometric | <0.05 µM
Cc1cc(S(N)(=O)=O)ccc1NC(=O)CSc1nnc(CF)n1-c1ccc(C)c2c1CCCC2 |  | RT-Y188L | nucleotide incorporation / radiometric | >0.1 µM
CC(C)(C#Cc1ccc(NC(=O)CSc2nnnn2-c2ccc(C(C)(C)C)cc2Cl)c(Cl)c1)OCC(=O)NCc1ccco1 |  | RT-K103 Y181C | PicoGreen / fluorescence | <1 µM
CC(C)(C)c1ccc(-n2nnnc2SCC(=O)Nc2ccc(-c3ccc(OCCN4CCCC4)cc3)cc2Cl)c(Cl)c1 |  | RT-K103 Y181C | PicoGreen / fluorescence | <1 µM

Rows are shuffled and stem from different studies. ICn is the concentration giving n% inhibition. An empty or dashed field is not shown.